Tested on: T1, 12-mer FRLKGGAPIKGV with substitution A819N (P1′)
T1 sequence: FRLKGGAPIKGV

In the case of “SARS-CoV papain-like protease 2 (SARS-CoV PLP2), residues 1414-1858 of pp1a, N-terminal 6xHis tag”, the Cleavage %, 2 h is reported as 62.5% and the Cleavage %, 12 h is reported as 100%.

From patent US20070160981A1 (priority 2005, published 2007)
